From publication PMC11087268, “A folate inhibitor exploits metabolic differences in Pseudomonas aeruginosa for narrow-spectrum targeting” (Nature Microbiology, 2024)
“And” between values parts separate entries of the source, which are not always exact repeats. Identical values can stand only once.

Test system: PA14
Assay: Drug accumulation assay (intrabacterial drug metabolism, LC–MS)
Format: cell-based, Pseudomonas aeruginosa
Settings: for Conc (nmol/L) in cell lysate / AUC0-90min of accumulation: PA14, 5 μM drug, one value per replicate
[1] = PA14, 5 μM trimethoprim, 60 min
[2] = PA14, 5 μM trimethoprim, 90 min
[3] = PA14, 5 μM fluorofolin, 30 min, listed as Fluorofolin
[4] = PA14, 5 μM fluorofolin, 60 min, listed as Fluorofolin
[5] = PA14, 5 μM fluorofolin, 90 min, listed as Fluorofolin

## COc1cc(Cc2cnc(N)nc2N)cc(OC)c1OC [Trimethoprim, trimethoprim, reference compound]
30 min
  Conc (nmol/L) in cell lysate: 0.2535 nmol/L and 0.3222 nmol/L and 0.1566 nmol/L
60 min
  Conc (nmol/L) in cell lysate: 0.1918 nmol/L and 0.2044 nmol/L and 0.213 nmol/L
90 min
  Conc (nmol/L) in cell lysate: 0.3012 nmol/L and 0.2417 nmol/L and 0.3455 nmol/L
  AUC0-90min of accumulation: 254 nmol*min/OD600 and 284 nmol*min/OD600 and 182 nmol*min/OD600
[1]
  accumulation normalized to OD600: 0.2517 nmol/OD600 and 0.2682 nmol/OD600 and 0.2796 nmol/OD600
  accumulation normalized to OD600 (last column): 2.517 µmol/OD600 and 2.682 µmol/OD600 and 2.796 µmol/OD600
[2]
  accumulation normalized to OD600: 0.3296 nmol/OD600 and 0.2644 nmol/OD600 and 0.3781 nmol/OD600
  accumulation normalized to OD600 (last column): 3.296 µmol/OD600 and 2.644 µmol/OD600 and 3.781 µmol/OD600

## Nc1nc(N)c2c(ccc3c2ccn3Cc2ccnc(F)c2)n1 [fluorofolin]
30 min
  Conc (nmol/L) in cell lysate: 1.0527 nmol/L and 1.3067 nmol/L and 1.086 nmol/L
60 min
  Conc (nmol/L) in cell lysate: 1.233 nmol/L and 1.363 nmol/L and 1.307 nmol/L
90 min
  Conc (nmol/L) in cell lysate: 1.25 nmol/L and 1.158 nmol/L and 1.224 nmol/L
Listed as IRS-143
  AUC0-90min of accumulation: 1300 nmol*min/OD600 and 1470 nmol*min/OD600 and 1340 nmol*min/OD600
[3]
  accumulation normalized to OD600: 1.834 nmol/L*OD600 and 2.276 nmol/L*OD600 and 1.891 nmol/L*OD600
  accumulation normalized to OD600 (last column): 18.3396 nmol/OD600 and 22.7648 nmol/OD600 and 18.9119 nmol/OD600
[4]
  accumulation normalized to OD600: 1.712 nmol/L*OD600 and 1.893 nmol/L*OD600 and 1.816 nmol/L*OD600
  accumulation normalized to OD600 (last column): 17.1201 nmol/OD600 and 18.9348 nmol/OD600 and 18.1559 nmol/OD600
[5]
  accumulation normalized to OD600: 1.558 nmol/L*OD600 and 1.444 nmol/L*OD600 and 1.526 nmol/L*OD600
  accumulation normalized to OD600 (last column): 15.5838 nmol/OD600 and 14.4399 nmol/OD600 and 15.2577 nmol/OD600
